Compound potency records, mixed from different reports. Data source: NIAID ChemDB in PubChem.

Shared fields: tests in culture; agent: Vaccinia virus; measure: inhibition

Inhibition is in % at the dose shown (toxicity tests: loss of growth or viability). Lines come from different laboratories, so protocols vary. Blank or dashed fields: not listed here.

compound | strain | cell line | tested at | value
CCCn1cnc(=N)c2[nH]cnc21 |  | BSC-1 | 6 µg/mL | 0%
Cc1ccc2ncc3c(=O)n(-c4ccc(Cl)cc4)[nH]c3c2c1 | WR | BSC-40 | 100 µM | 70%
CO[C@H]1/C=C/O[C@@]2(C)Oc3c(C)c(O)c4c(O)c(c(/C=N/NC(=O)CN5CCN(c6ccc(NC(C)=O)cc6)CC5)c(O)c4c3C2=O)NC(=O)/C(C)=C\C=C\[C@H](C)[C@H](O)[C@@H](C)[C@@H](O)[C@@H](C)[C@H](OC(C)=O)[C@@H]1C |  | L929 | 50 µg/mL | 0%
O=c1c2cn(C3O[C@H](CO)[C@@H](O)[C@H]3O)c3cc(F)ccc3c-2nn1-c1ccc(F)cc1 | WR | BSC-40 | 100 µM | 9%
CO[C@H]1/C=C/O[C@@]2(C)Oc3c(C)c(O)c4c(O)c(c(/C=N/NC(=O)CN5CCN(c6ccc([N+](=O)[O-])cc6)CC5)c(O)c4c3C2=O)NC(=O)/C(C)=C\C=C\[C@H](C)[C@H](O)[C@@H](C)[C@@H](O)[C@@H](C)[C@H](OC(C)=O)[C@@H]1C |  | L929 | 50 µg/mL | 0%
Cc1ccc2c(c1)c1nn(-c3ccc(Cl)cc3)c(=O)c-1cn2C1O[C@H](CO)[C@@H](O)[C@H]1O | WR | BSC-40 | 100 µM | 8%
CN1C(=O)NC(=O)N([C@H]2C[C@H](O)[C@@H](CO)O2)C1(C)C |  | VERO | 50 µM | 38%
Cc1ccccc1Cn1cnc(=N)c2[nH]cnc21 |  | BSC-1 | 50 µg/mL | 0%
CO[C@H]1/C=C/O[C@@]2(C)Oc3c(C)c(O)c4c(O)c(c(/C=N/NC(=O)CN5CCN(c6ccc(C(C)(C)C)cc6)CC5)c(O)c4c3C2=O)NC(=O)/C(C)=C\C=C\[C@H](C)[C@H](O)[C@@H](C)[C@@H](O)[C@@H](C)[C@H](OC(C)=O)[C@@H]1C |  | L929 | 50 µg/mL | 0%
Cc1ccc2c(c1)c1nn(-c3ccc(Br)cc3)c(=O)c-1cn2C1O[C@H](CO)[C@@H](O)[C@H]1O | WR | BSC-40 | 100 µM | 10%
Cn1cc(NC(=O)c2cc(NC(=O)c3cc([N+](=O)[O-])cn3C)cn2C)cc1C(=O)NCCC(=N)N | Noguchi | BSC-1 | 10 µg/mL | 0%
CCn1cnc(=N)c2[nH]cnc21 |  | BSC-1 | 25 µg/mL | 0%
Cc1ccc2ncc3c(=O)n(-c4ccccc4)[nH]c3c2c1 | WR | BSC-40 | 100 µM | 47%
CO[C@H]1/C=C/O[C@@]2(C)Oc3c(C)c(O)c4c(O)c(c(/C=N/NC(=O)CN5CCN(c6ccc(C#N)cc6)CC5)c(O)c4c3C2=O)NC(=O)/C(C)=C\C=C\[C@H](C)[C@H](O)[C@@H](C)[C@@H](O)[C@@H](C)[C@H](OC(C)=O)[C@@H]1C |  | L929 | 50 µg/mL | 0%
Cc1ccc2ncc3c(=O)n(-c4ccc(Br)cc4)[nH]c3c2c1 | WR | BSC-40 | 100 µM | 42%
CO[C@H]1/C=C/O[C@@]2(C)Oc3c(C)c(O)c4c(O)c(c(/C=N/NC(=O)CN5CCN(c6ccc(F)cc6)CC5)c(O)c4c3C2=O)NC(=O)/C(C)=C\C=C\[C@H](C)[C@H](O)[C@@H](C)[C@@H](O)[C@@H](C)[C@H](OC(C)=O)[C@@H]1C |  | L929 | 50 µg/mL | 0%
N=c1ncn(Cc2ccco2)c2nc[nH]c12 |  | BSC-1 | 50 µg/mL | 0%
CO[C@H]1/C=C/O[C@@]2(C)Oc3c(C)c(O)c4c(O)c(c(/C=N/NC(=O)CN5CCN(c6ccc(C)cc6)CC5)c(O)c4c3C2=O)NC(=O)/C(C)=C\C=C\[C@H](C)[C@H](O)[C@@H](C)[C@@H](O)[C@@H](C)[C@H](OC(C)=O)[C@@H]1C |  | L929 | 50 µg/mL | 0%
N=c1ncn(Cc2cccc([N+](=O)[O-])c2)c2nc[nH]c12 |  | BSC-1 | 25 µg/mL | 0%
Cn1cc(NC(=O)c2cc(NC(=O)CN=C(N)N)cn2C)c(C(=O)NCCC(=N)N)c1 | Noguchi | BSC-1 | 50 µg/mL | 73%
CO[C@H]1/C=C/O[C@@]2(C)Oc3c(C)c(O)c4c(O)c(c(/C=N/NC(=O)CN5CCN(c6ccc(Br)cc6)CC5)c(O)c4c3C2=O)NC(=O)/C(C)=C\C=C\[C@H](C)[C@H](O)[C@@H](C)[C@@H](O)[C@@H](C)[C@H](OC(C)=O)[C@@H]1C |  | L929 | 50 µg/mL | 0%

For reference, 2 entries again:

compound,strain,cell line,tested at,value
CO[C@H]1/C=C/O[C@@]2(C)Oc3c(C)c(O)c4c(O)c(c(/C=N/NC(=O)CN5CCN(c6ccc(Br)cc6)CC5)c(O)c4c3C2=O)NC(=O)/C(C)=C\C=C\[C@H](C)[C@H](O)[C@@H](C)[C@@H](O)[C@@H](C)[C@H](OC(C)=O)[C@@H]1C,,L929,50 µg/mL,0%
Cc1ccc2ncc3c(=O)n(-c4ccc(Cl)cc4)[nH]c3c2c1,WR,BSC-40,100 µM,70%